Results of unrelated studies side by side (data: NIAID ChemDB).

All rows: tests in culture; organism: Cryptococcus neoformans

An empty or dashed field is not shown.

smiles | strain | measure | read by | value
CCCCCOc1ccc(-c2ccc(-c3ccc(C(=O)N[C@H]4C[C@@H](O)[C@@H](O)NC(=O)[C@@H]5[C@@H](O)[C@@H](C)CN5C(=O)[C@H]([C@H](C)O)NC(=O)[C@H]([C@H](O)[C@@H](O)c5ccc(O)cc5)NC(=O)[C@@H]5C[C@@H](O)CN5C(=O)[C@H]([C@H](C)O)NC4=O)cc3)cc2)cc1 | 15 isolates | MIC90 | - | >10.24 µg/mL
CC(C)(C)C1CCC(CN2C3=NC[C@H](CC4CCCCC4)N3C[C@H]2CC2CCCCC2)CC1 | ATCC 32045 | EC50 | - | 3.4 µg/mL
Cc1nnsc1-c1n[nH]c(=S)n1C1C2CC3CC(C2)CC1C3 | PLM 589 | MIC | - | 12.5 µg/mL
CN[C@H]1CC[C@@H](c2ccc(Cl)c(Cl)c2)c2ccccc21 | UA 1993 | MFC | broth dilution | 8 µg/mL
ONC1=Nc2cc(Cl)ccc2SC1 | IMAT4711 | MIC | - | 10 µg/mL
COC(=O)c1ccc(N2C(=O)C(OC(C)=O)C2c2ccc(OC)cc2)cc1 | AH27/A | MIC | - | 33.87 µM
CCCCCCCCCCCCC(OC)C(=O)O | ATCC66031 | MIC | - | 110 µM
CC(C)C(=N)CCC=C1CO[C@@](Cn2ccnc2)(c2ccc(F)cc2F)C1 | B42419 | MIC | - | 25 µg/mL
Cc1nnsc1C(=O)NNC(=S)NC12CC3CC(CC(C3)C1)C2 | PLM 589 | MIC | - | 25 µg/mL
C=C(C)[C@@H]1CC[C@]2(C(=O)O)CC[C@]3(C)C(CCC4[C@@]5(C)C[C@@H](O)[C@H](O)C(C)(C)C5[C@@H](O)C[C@]43C)C12 | - | EC50 | - | 20 µg/mL
CN(C)c1ccc(C2Sc3ccccc3C2CO)cc1 | 93/V | MIC | - | 50 µg/mL
CCCCNC(=S)NNC(=O)c1sc(C)nc1C | PLM 589 | MIC | - | 3.12 µg/mL
C1CCC(C[C@H]2CN3C(=NC[C@@H]3C3CCCCC3)N2CCC23CC4CC(CC(C4)C2)C3)CC1 | ATCC 32045 | EC50 | - | 15 µg/mL
COc1ccc(O)c(C2Sc3ccccc3C2CO)c1 | Farwania | MIC | - | 12.5 µg/mL
Nc1scc2c1c(=O)oc1ccccc12 | IP 90526 | MIC | broth dilution | 2 µg/mL
COc1ccc(N2C(=O)C(OC(C)=O)C2c2ccccc2)cc1 | AH27/A | MIC | - | 80.38 µM
CCCCCCCCCCCCCCCCCC(=O)NC1CC(O)C(O)NC(=O)C2C(O)C(C)CN2C(=O)C(C(C)O)NC(=O)C(C(O)C(O)c2ccc(O)cc2)NC(=O)C2CC(O)CN2C(=O)C(C(C)O)NC1=O | MY1051 | MIC | - | >128 µg/mL
CC1(O)CC(=O)c2c(cc3ccc(-c4ccc5cc6c(c(O)c5c4O)C(=O)CC(C)(O)C6)c(O)c3c2O)C1 | - | MIC | - | 4 µg/mL
CCC(C)n1ncn(-c2ccc(N3CCN(c4ccc(OC[C@H]5CO[C@](Cn6cncn6)(c6ccc(Cl)cc6Cl)O5)cc4)CC3)cc2)c1=O | L3 | MIC | broth dilution | 2 µg/mL
OCC1c2ccccc2SC1c1cc(Cl)ccc1O | Farwania | MIC | - | 12.5 µg/mL
O=C(NC1=Nc2ccc3ccccc3c2SC1)Oc1ccccc1 | IMAT4711 | MIC | - | 50 µg/mL
C[C@H]1[C@H](O)[C@@H](C)/C=C/C=C/C=C/C=C/C=C/C=C/C=C/[C@H](O[C@@H]2O[C@H](C)[C@@H](O)[C@H](N)[C@@H]2O)C[C@@H]2O[C@](O)(C[C@@H](O)C[C@@H](O)CC[C@H](O)[C@@H](O)C[C@@H](O)CC(=O)O[C@H]1C)C[C@H](O)[C@H]2C(=O)O | 15 isolates | MIC90 | - | 0.25 µg/mL
COc1cc(NC(C)CCCN)c2nc(C(C)(C)C)ccc2c1Oc1cccc(C(F)(F)F)c1 | - | MFC | - | 5 µg/mL
CO[C@H]1[C@@H](O)[C@H](O)[C@H](OC[C@@]23C[C@@H]4[C@H](C)CC[C@H]4[C@@]4(C=O)C[C@@H]2C=C(C(C)C)[C@@]34C(=O)O)O[C@@H]1C | 2867E | MIC | - | >125 µg/mL
CC(C)(C)C1CCC(CN2C3=NC[C@@H](CC4CCCCC4)N3C[C@@H]2CC2CCCCC2)CC1 | ATCC 32045 | MIC | - | 8–16 µg/mL
C[C@H]([C@](O)(Cn1cncn1)c1ccc(F)cc1F)S(C)(=O)=O | R715 (AZOLE-R) | EC50 | - | 1.5 µM
OCc1c(-c2ccc3c(c2)OCO3)sc2ccccc12 | 93/V | MIC | - | 25 µg/mL
CC(=O)OC1C(=O)N2CCCS(=O)(=O)C12c1ccccc1 | AH27/A | MIC | - | 19.41 µM
OC(Cn1cncn1)(Cn1cncn1)c1ccc(F)cc1F | ATCC 90113 | MIC | - | 0.125 µg/mL
CC(C)C(=O)CCC[C@H]1CO[C@@](Cn2ccnc2)(c2ccc(F)cc2F)C1 | B42419 | MIC | - | 1.56 µg/mL
CCC(C)CC(C)CCCCCCCCC(=O)N[C@H]1C[C@@H](O)[C@H](NCCN)NC(=O)[C@@H]2[C@@H](O)CCN2C(=O)[C@H]([C@H](O)CCN)NC(=O)[C@H]([C@H](O)[C@@H](O)c2ccc(O)cc2)NC(=O)[C@@H]2C[C@@H](O)CN2C(=O)[C@H]([C@@H](C)O)NC1=O | 15 strains | MIC90 | - | >8 µg/mL
CCC(C)n1ncn(-c2ccc(N3CCN(c4ccc(OC[C@H]5CO[C@](Cn6cncn6)(c6ccc(Cl)cc6Cl)O5)cc4)CC3)cc2)c1=O | 3 | MIC | - | 0.1 µg/mL
OC(CN1CCN(c2ccc(OCc3ccncc3)cc2)CC1)(Cn1cncn1)c1ccc(F)cc1F | 95211 | MIC80 | - | 0.5 µg/mL
COc1ccc(CS(=O)(=O)C2NN=C(c3sc(C)nc3C)N2C2C3CC4CC(C3)CC2C4)cc1 | PLM 589 | MIC | - | 25 µg/mL
S=C(NNC1=Nc2ccc3ccccc3c2SC1)Nc1ccccc1 | IMAT4711 | MIC | - | 50 µg/mL
CC(C)(C)C1CCC(CN2C3=NC[C@H](CC4CCCCC4)N3C[C@@H]2C2CCCCC2)CC1 | ATCC 32045 | MIC | - | 4–8 µg/mL
CCC(C)C(NC)C(=O)NC1C(=O)OC(C(C)C)C(=O)OC(CC(C)C)C(=O)NC(C(C)CC)C(=O)N(C)C(CC(C)C)C(=O)NC(C(C)O)C(=O)N(C)C(C(C)C)C(=O)NC(C)C(=O)N(C)C(CC(C)C)C(=O)OC1C | IAM 4772 | MIC | - | 0.31 µg/mL
CC(C)=CCc1c(O)ccc(C(=O)/C=C/c2ccc(O)cc2)c1O | - | MIC50 | - | 7 µg/mL
CCCC(O)C/C=C\C=C\C(=O)OC[C@H]1O[C@@H](O[C@@H]2[C@H](OC(=O)/C=C/C=C/CC(O)/C(C)=C/C=C/CCC(C)CC)[C@@H](O)[C@]3(OCc4cc(O)cc(O)c43)O[C@@H]2CO)[C@H](O)[C@@H](O)[C@H]1O | MY1146 | MIC | - | >128 µg/mL
CCS(=O)(=O)C(F)(F)C(O)(Cn1cncn1)c1ccc(F)cc1F | 26 strains | MIC50 | - | 0.5 µg/mL
OCC1c2ccccc2SC1c1cc(Br)ccc1O | Isolate 25 | MIC | - | 6 µg/mL
ONC1=Nc2ccc3ccccc3c2SCC1 | IMAT4711 | MIC | - | 50 µg/mL
COc1cccc(-c2sc3ccccc3c2CO)c1O | Isolate 25 | MIC | - | 50 µg/mL
CC(=O)ONC1=Nc2cc(Cl)ccc2SC1 | IMAT4711 | MIC | - | 10 µg/mL
CC(C)(C)C1CCC(CN2C3=NC[C@@H](CC4CCCCC4)N3C[C@H]2C2CCCCC2)CC1 | ATCC 32045 | MIC | - | 4–8 µg/mL
CN[C@@H]1[C@H](O[C@@H]2OC[C@@H](O)[C@H](O)[C@H]2O)[C@@H](O)[C@H](O[C@H]2c3cc(C)c(C(=O)N[C@H](C)C(=O)O)c(O)c3-c3c(cc4c(c3O)C(=O)c3cc(OC)cc(O)c3C4=O)[C@@H]2O)O[C@@H]1C | IAM 4514 | MIC | - | 0.8 µg/mL
ONC1=Nc2cnc3ccccc3c2SC1 | IMAT4711 | MIC | - | 25 µg/mL
OC(Cn1cncn1)(Cn1cncn1)c1ccc(F)cc1F | ATCC 36556 | MIC50 | - | 3.75 µg/mL
CCC(C)/C=C(C)/C=C/C=C(\C)CC(C)CC(C)CC(/C=C(C)/C=C/C(O)C(C)(C)c1cc(O)c([C@@H]2O[C@H](CO)C[C@H](O)[C@H]2O)c(=O)o1)CO | M9010 | MIC | - | 6.2 µg/mL
NCCNC(=O)C1=Nc2ccc(NC(=O)C3=Nc4ccc(C(=O)Nc5ccc6[nH]c(C(=O)NCCN)cc6c5)cc4C3)cc2C1 | Serotype A | MFC | - | 8 µg/mL
CC(C)C(=N)CCC=C1CO[C@@](Cn2cncn2)(c2ccc(F)cc2F)C1 | A.34144 | MIC | - | 50 µg/mL
CC1(O)CC(=O)c2c(cc3ccc(-c4c5c(c(O)c6c(O)cccc46)C(=O)CC(C)(O)C5)c(O)c3c2O)C1 | - | MIC | - | 8 µg/mL
C[C@H]1[C@H](O)[C@@H](C)/C=C/C=C/C=C/C=C/C=C/C=C/C=C/[C@H](O[C@@H]2O[C@H](C)[C@@H](O)[C@H](N)[C@@H]2O)C[C@@H]2O[C@](O)(C[C@@H](O)C[C@@H](O)CC[C@H](O)[C@@H](O)C[C@@H](O)CC(=O)O[C@H]1C)C[C@H](O)[C@H]2C(=O)O | MTCC 4406 | MFC | broth dilution | 1 µg/mL
C=C1/C=C(\C)[C@H](CC)OC(=O)[C@H](C)C(=O)C(O)(CO)C/C(OC)=C/[C@@H](C)C1 | MY1051 | MIC | - | 0.002 µg/mL
O=C(ONC1=Nc2ccc(Cl)cc2SCC1)c1ccccc1 | IMAT4711 | MIC | - | 50 µg/mL
OCC1c2ccccc2SC1c1ccc2c(c1)OCO2 | 93/V | MIC | - | 25 µg/mL

6 of the rows above, restated:

smiles,strain,measure,read by,value
CO[C@H]1[C@@H](O)[C@H](O)[C@H](OC[C@@]23C[C@@H]4[C@H](C)CC[C@H]4[C@@]4(C=O)C[C@@H]2C=C(C(C)C)[C@@]34C(=O)O)O[C@@H]1C,2867E,MIC,-,>125 µg/mL
CCC(C)/C=C(C)/C=C/C=C(\C)CC(C)CC(C)CC(/C=C(C)/C=C/C(O)C(C)(C)c1cc(O)c([C@@H]2O[C@H](CO)C[C@H](O)[C@H]2O)c(=O)o1)CO,M9010,MIC,-,6.2 µg/mL
CC(C)C(=N)CCC=C1CO[C@@](Cn2ccnc2)(c2ccc(F)cc2F)C1,B42419,MIC,-,25 µg/mL
COC(=O)c1ccc(N2C(=O)C(OC(C)=O)C2c2ccc(OC)cc2)cc1,AH27/A,MIC,-,33.87 µM
ONC1=Nc2cc(Cl)ccc2SC1,IMAT4711,MIC,-,10 µg/mL
OCC1c2ccccc2SC1c1cc(Br)ccc1O,Isolate 25,MIC,-,6 µg/mL

ECn: concentration that inhibits the pathogen or its effect by n%. A number after MIC or MFC names an inhibition level or a share of isolates. Neighbouring rows are from separate reports. Two numbers with a dash give a range or band.